How the values were obtained:
[1] = biological target: T1, His-PABP, fluorophore-labelled (UniProt P11940 1-636, RED-tris-NTA 2nd Generation fluorophore on the His tag); test: MST; as the PABP:Paip1 titration, with SUD added at a constant final concentration of 19 μM/tube; conditions: both partners purified
[2] = biological target: T1, His-PABP, fluorophore-labelled; test: MST; His-PABP labelled with RED-tris-NTA, 50 nM; Paip1 serially diluted from 140 μM; 20 mM HEPES, 150 mM NaCl, 0.05% Tween-20, pH 8.0; 22°C; Monolith NT.115; conditions: both partners purified

B1: Paip1 protein without His-tag, purified (natural protein, human, UniProt Q9H074-2 1-400, looked up)
chain: MSDGFDRAPEQTRPLRAPPSSQDKIPQQNSESAMAKPQVVVAPVLMSKLSVNAPEFYPSGYSSSYTESYEDGCEDYPTLSEYVQDFLNHLTEQPGSFETEIEQFAETLNGCVTTDDALQELVELIYQQATSIPNFSYMGARLCNYLSHHLTISPQSGNFRQLLLQRCRTEYEVKDQAAKGDEVTRKRFHAFVLFLGELYLNLEIKGTNGQVTRADILQVGLRELLNALFSNPMDDNLICAVKLLKLTGSVLEDAWKEKGKMDMEEIIQRIENVVLDANCSRDVKQMLLKLVELRSSNWGRVHATSTYREATPENDPNYFMNEPTFYTSDGVPFTAADPDYQEKYQELLEREDFFPDYEENGTDLSGAGDPYLDDIDDEMDPEIEEAYEKFCLESERKRKQ
- Kd [1]: 1.9 µM
- Kd [2]: ~8.4 µM
